Assays:
algae [1] = test: Lipid enhancement with acetic acid/acetate salts and glycerol (algae re-suspended in salts solution); type: cell-based; conditions: 15 hrs after adding; substance as the carbon source
algae [2] = test: Lipid enhancement with glycerol (algae re-suspended in salts solution); type: cell-based
Description: The specific procedure was: • i. […] Rotate 20 min at 40% output (Glas-Col) • vi. Centrifuge at 3620 g for 5 min • vii.
Algae were first cultured and then collected by centrifuge.
The thin layer chromatography analysis was performed the same as in Experiment 2.

## OCC(O)CO [glycerol]
Algae [1]
  particles inside alga cells (microscopic images): no particles inside alga cells were observed
Algae [2]; 0.5, 1, 5 g/L glycerol
  effect of glycerol concentration on the lipid content: no obvious effect
Algae [2]; compared to the initial algae culture
  lipid profile by TLC: the free fatty acid part reduced and the triglyceride part became larger

Source: US10584361B2, “Algae having intracellular lipid particles and high lipid content” (THE UNIVERSITY OF AKRON, priority 2012, dated 2020)
